PubChem BioAssay AID624099 – ICCB-Longwood | 2012
Assay: 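Knock-downs relieving repression by E2 of an HPV18 LCR luciferase reporter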 (primary screen). Cell system: human C33A cervical carcinoma cells (HPV-negative) stably expressing BPV1 E2 and an HPV18 LCR luciferase reporter. Reagent: siRNA pool against human genes, 40 nM. Duration: 72 h. Measurement: 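Per-well luciferase luminescence, z-scored on each plate against the plate mean and SD with control wells left out, then averaged across three replicate plates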. Reading the numbers: mean z-score and z-score: higher = stronger reporter signal, weaker E2 silencing. Call rule: 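Mean z ≥ 2 together with z ≥ 2 in two or more of the three replicates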.
The whole screen tested about 21,000 reagents; this is a part drawn at random. In the full data, 497 (2.4%) are marked active. 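Higher z means weaker E2 silencing; only reporter increases were scored, and knock-downs that hurt cell survival may mask genuine repressor factors.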 A number with no mark means an inactive call. The numbers tell different reagents against one gene apart.

| gene | pool no. | mean z-score | z-score, replicate A | z-score, replicate B | z-score, replicate C |
| --- | --- | --- | --- | --- | --- |
| NUDT13 | 1 | 0.13 | -0.01 | 0.59 | -0.2 |
| ZNF43 | 1 | 0.92 | 1.42 | 0.1 | 1.22 |
| FAM24B | 1 | -0.4 | -0.46 | -0.31 | -0.41 |
| CLOCK | 1 | -1 | -1.08 | -0.95 | -0.97 |
| MSMO1 | 1 | -0.01 | 0.45 | -0.11 | -0.37 |
| ANKFY1 | 1 | -1.09 | -0.6 | -1.36 | -1.31 |
| SLC35D1 | 1 | -0.38 | -0.14 | -0.62 | -0.39 |
| ADORA2B | 1 | 0.19 | -0.05 | 0.44 | 0.18 |
| GET4 | 1 | 0.26 | 0.01 | 0.52 | 0.25 |
| GRK2 | 1 | 1.33 | 1.79 | 1.26 | 0.95 |
| SIRT5 | 1 | -1.91 | -1.6 | -2.28 | -1.85 |
| KLHL38 | 1 | 0.92 | 1.18 | 0.8 | 0.77 |
| TRIM39 | 1 | 1.11 | 1.09 | 0.96 | 1.28 |
| LCP1 | 1 | 0.57 | 0.72 | 0.42 | 0.56 |
| N4BP2L1 | 1 | -0.79 | -0.71 | -0.84 | -0.82 |
| NUP50 | 1 | 1.17 | 1.09 | 1.27 | 1.16 |
| EN1 | 1 | 1.05 | 1.44 | 0.98 | 0.72 |
| SIGLECL1 | 1 | 0 | 0 | 0.05 | -0.06 |
| LOC400577 (retired record) | 1 | 0.4 | 0.55 | 0.34 | 0.32 |
| FAM90A25P | 1 | 0.19 | 0.22 | 0.45 | -0.11 |
| OR1F2P | 1 | -1.13 | -1.25 | -1.2 | -0.95 |
| OTULINL | 1 | 0.47 | 0.4 | 0.39 | 0.63 |
| CDC45 | 1 | -0.22 | -0.16 | -0.23 | -0.28 |
| RAC2 | 1 | -0.17 | -0.2 | -0.17 | -0.13 |
| UNC45B | 1 | 1.71 | 1.64 | 1.93 | 1.57 |
| MXD4 | 1 | 2.16 (active) | 1.75 | 2.22 | 2.52 |
| RRBP1 | 1 | 0.57 | 0.66 | 0.71 | 0.35 |
| LOC153134 (retired record) | 1 | 0.36 | 0.35 | 0.48 | 0.24 |
| FGF21 | 1 | 0.54 | 0.74 | 0.53 | 0.35 |
| BSCL2 | 1 | -0.52 | -0.3 | -0.59 | -0.66 |

4 entries from above, reformatted:
{"gene": "EN1", "pool no.": 1, "mean z-score": 1.05, "z-score, replicate A": 1.44, "z-score, replicate B": 0.98, "z-score, replicate C": 0.72}
{"gene": "SIGLECL1", "pool no.": 1, "mean z-score": 0, "z-score, replicate A": 0, "z-score, replicate B": 0.05, "z-score, replicate C": -0.06}
{"gene": "LOC400577 (retired record)", "pool no.": 1, "mean z-score": 0.4, "z-score, replicate A": 0.55, "z-score, replicate B": 0.34, "z-score, replicate C": 0.32}
{"gene": "FAM90A25P", "pool no.": 1, "mean z-score": 0.19, "z-score, replicate A": 0.22, "z-score, replicate B": 0.45, "z-score, replicate C": -0.11}

Further records follow.
| gene | pool no. | mean z-score | z-score, replicate A | z-score, replicate B | z-score, replicate C |
| --- | --- | --- | --- | --- | --- |
| ANKEF1 | 1 | 0.03 | -0.24 | 0.04 | 0.29 |
| STUM | 1 | 1.23 | 1.3 | 1.17 | 1.21 |
| STUM | 2 | 1.41 | 0.96 | 1.25 | 2.02 |
| SUFU | 1 | 0.99 | 0.79 | 0.77 | 1.4 |
| CA1 | 1 | -0.31 | -0.41 | -0.27 | -0.25 |
| CLTA | 1 | 0.38 | 0.52 | 0.49 | 0.14 |
| TALDO1 | 1 | -1.1 | -1.32 | -1.27 | -0.72 |
| PRH2 | 1 | 0.35 | 0.47 | 0.17 | 0.43 |
| POLD2 | 1 | 1.05 | 0.83 | 1.42 | 0.89 |
| RASGRP3 | 1 | 0.56 | 0.36 | 0.53 | 0.78 |
| LOC388917 (retired record) | 1 | 0.21 | 0.34 | 0.18 | 0.11 |
| LINC02396 | 1 | -0.08 | -0.1 | -0.37 | 0.22 |
| TEDDM1 | 1 | -1.64 | -1.53 | -1.72 | -1.69 |
| LOC388481 (retired record) | 1 | -0.35 | -0.77 | -0.29 | 0.02 |
| ZMYND11 | 1 | -0.38 | -0.46 | -0.37 | -0.31 |
| LOC401330 (retired record) | 1 | -1.92 | -2.04 | -1.92 | -1.79 |
| LOC400840 (retired record) | 1 | 0.14 | 0.02 | 0.19 | 0.21 |
| PSMD6 | 1 | 0.32 | 0.27 | 0.19 | 0.51 |
| ZPR1 | 1 | 0.46 | 0.51 | 0.63 | 0.24 |
| VN1R3 | 1 | 0.22 | 0.23 | -0.07 | 0.49 |
| LINC00305 | 1 | -0.98 | -1.23 | -0.91 | -0.81 |
| LYSMD1 | 1 | -0.26 | -0.25 | -0.49 | -0.06 |
| MSRA | 1 | -0.7 | -0.42 | -1.17 | -0.51 |
| TAAR8 | 1 | -0.62 | -0.67 | -0.57 | -0.61 |
| ENO4 | 1 | -0.14 | -0.3 | -0.17 | 0.05 |
| MYL1 | 1 | 0.23 | 0.21 | 0.32 | 0.17 |
| GPRACR | 1 | -0.35 | -0.62 | 0 | -0.44 |
